Measurements reported in PubChem BioAssay AID624099 (ICCB-Longwood, 2012)
This is a random part of about 21,000 deposited reagents. In the full data, 497 (2.4%) got an active call. 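Higher z means weaker E2 silencing; only reporter increases were scored, and knock-downs that hurt cell survival may mask genuine repressor factors.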 The numbers tell different reagents against one gene apart.

Assay: 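Host factors E2 relies on to silence an HPV18 LCR reporter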 (primary screen)
Cell system: human C33A cervical carcinoma cells (HPV-negative) stably expressing BPV1 E2 and an HPV18 LCR luciferase reporter
Knock-down reagent: siRNA pool against human genes, 40 nM
Duration: 72 h
Detection: 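HPV18 LCR reporter light per well, converted to plate-wise z-scores that exclude control wells, and averaged over triplicate plates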
Reading the numbers: mean z-score and z-score: higher = stronger reporter signal, weaker E2 silencing
Call rule: 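Mean z ≥ 2 together with z ≥ 2 in two or more of the three replicates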

For ZNF781, the entry reads mean z-score 0.61; z-score, replicate A = 0.71; z-score, replicate B = 0.65; z-score, replicate C = 0.46; inactive.
GPATCH11 gave mean z-score 1.02; z-score, replicate A = 1.22; z-score, replicate B = 0.85; z-score, replicate C = 1; inactive.
After knock-down of OR10H1, the record shows mean z-score -0.53; z-score, replicate A = -0.41; z-score, replicate B = -0.85; z-score, replicate C = -0.34; inactive.
CHST2 showed mean z-score 0.07; z-score, replicate A = 0.06; z-score, replicate B = -0.04; z-score, replicate C = 0.2; inactive.
After knock-down of GIPC1, the screen gave mean z-score 0.13; z-score, replicate A = -0.1; z-score, replicate B = 0.36; z-score, replicate C = 0.12; inactive.
Depletion of SEC22C gave: mean z-score -0.12; z-score, replicate A = -0.13; z-score, replicate B = -0.09; z-score, replicate C = -0.13; inactive.
For BALR6, the entry reads mean z-score -0.53; z-score, replicate A = -0.25; z-score, replicate B = -0.82; z-score, replicate C = -0.52; inactive.
With knock-down of SLCO1B7, the screen gave mean z-score -0.14; z-score, replicate A = -0.3; z-score, replicate B = -0.08; z-score, replicate C = -0.03; inactive.
After knock-down of KCNJ12 the results were mean z-score -0.78; z-score, replicate A = -0.97; z-score, replicate B = -0.67; z-score, replicate C = -0.72; inactive.
PPIL1 scored mean z-score 0.02; z-score, replicate A = 0.68; z-score, replicate B = 0.2; z-score, replicate C = -0.81; inactive.
Silencing of NKAIN2 came out at: mean z-score 0.51; z-score, replicate A = 0.26; z-score, replicate B = 0.47; z-score, replicate C = 0.79; inactive.

Individual results from above.
GPATCH11, z-score, replicate A: 1.22
GIPC1, z-score, replicate C: 0.12

Additional reagents follow.
After knock-down of CKS2, the record shows mean z-score 0.09; z-score, replicate A = -0.01; z-score, replicate B = 0.27; z-score, replicate C = 0.01; inactive.
LOC399867 (retired record) gave mean z-score 0.24; z-score, replicate A = -0.05; z-score, replicate B = -0.16; z-score, replicate C = 0.93; inactive.
Against LOC154323 (retired record) the deposit lists mean z-score -0.45; z-score, replicate A = -0.61; z-score, replicate B = -0.27; z-score, replicate C = -0.46; inactive.
Knock-down of LOC285442 gave: mean z-score -0.51; z-score, replicate A = -0.42; z-score, replicate B = -0.39; z-score, replicate C = -0.72; inactive.
For LIN52, the entry reads mean z-score 1.64; z-score, replicate A = 1.35; z-score, replicate B = 1.78; z-score, replicate C = 1.8; inactive.
DHDDS showed mean z-score -1.21; z-score, replicate A = -1.33; z-score, replicate B = -1.18; z-score, replicate C = -1.14; inactive.
With knock-down of ITLN2 the results were mean z-score 1.16; z-score, replicate A = 1.09; z-score, replicate B = 0.57; z-score, replicate C = 1.81; inactive.
With knock-down of SPMIP8, the record shows mean z-score 0.49; z-score, replicate A = 0.27; z-score, replicate B = 0.53; z-score, replicate C = 0.67; inactive.
LINC02991 showed mean z-score 0.08; z-score, replicate A = 0.3; z-score, replicate B = -0.16; z-score, replicate C = 0.1; inactive.
Knock-down of HMCN2 #1 came out at: mean z-score 0.43; z-score, replicate A = 0.58; z-score, replicate B = 0.33; z-score, replicate C = 0.37; inactive.
Against HMCN2 #2 the deposit lists mean z-score 1.07; z-score, replicate A = 0.84; z-score, replicate B = 1.21; z-score, replicate C = 1.15; inactive.
Silencing of HMCN2 #3 resulted in: mean z-score 0.36; z-score, replicate A = 0.48; z-score, replicate B = -0.05; z-score, replicate C = 0.63; inactive.
